Anti-infective test results gathered from many reports (values: NIAID ChemDB through PubChem).

Shared fields: growth or infection tests; organism: Mycobacterium kansasii; read-out: MIC

Conditions beyond the fields shown may differ between rows.

| compound | method | conditions | strain or isolate | value |
|---|---|---|---|---|
| N/C(=N\N=C\c1cc(Cl)ccc1O)SCc1cccc(Cl)c1 | broth dilution | 14 d | 6509/96 | 32 µM |
| O=c1oc2ccc(Br)cc2c(=S)n1-c1cccc(Cl)c1 | - | 21 d | 6509/96 | 4 µM |
| O=C(Nc1ccc(Cl)c(Cl)c1)c1cc(Cl)ccc1OS(=O)(=O)c1ccccc1 | - | 7 d | 235/80 | 4 µM |
| O=C(Oc1cc(Cl)ccc1C(=O)Nc1ccc(Cl)c(Cl)c1)c1cnccn1 | - | 14 d | 6509/96 | 4 µM |
| Cc1ccc2oc(=O)n(-c3cccc(Cl)c3)c(=S)c2c1 | - | 14 d | My 235/80 | 2 µM |
| O=C(Nc1cccc(F)c1)c1cc(Cl)ccc1OS(=O)(=O)c1ccccc1 | - | 21 d | 235/80 | 32 µM |
| O=C(Oc1ccc(Cl)cc1C(=O)Nc1ccc(Cl)c(Cl)c1)c1cnccn1 | - | 7 d | 6509/96 | 1 µM |
| Cc1ccc2oc(=O)n(-c3cccc(F)c3)c(=S)c2c1 | - | 14 d | My 235/80 | 16 µM |
| O=C(Oc1cc(Cl)ccc1C(=O)Nc1cccc(Br)c1)c1cnccn1 | - | 14 d | 6509/96 | 4 µM |
| S=c1oc2ccc(Br)cc2c(=S)n1-c1ccc(Cl)cc1 | - | 21 d | 6509/96 | 4 µM |
| O=C(Nc1cccc(Br)c1)c1cc(Cl)ccc1OS(=O)(=O)c1ccccc1 | - | 14 d | 235/80 | 16 µM |
| O=C(Oc1ccc(Br)cc1C(=O)Nc1ccc(C(F)(F)F)cc1)c1cnccn1 | - | 14 d | 235/80 | 2 µM |
| N/C(=N\N=C\c1cc(Br)ccc1O)SCc1ccc(C(F)(F)F)cc1 | broth dilution | 21 d | ATCC 12478 | 62.5 µM |
| Cc1ccc(-n2c(=O)oc3ccc(Br)cc3c2=S)cc1 | - | 14 d | 6509/96 | 2 µM |
| O=C(Nc1cccc(C(F)(F)F)c1)c1ccc(Cl)cc1OS(=O)(=O)c1ccccc1 | - | 7 d | 6509/96 | 125 µM |
| N/C(=N\N=C\c1ccccc1)SCc1ccccc1 | broth dilution | 14 d | ATCC 12478 | 62.5 µM |
| O=C(Oc1ccc(Cl)cc1C(=O)Nc1ccc(C(F)(F)F)cc1)c1cnccn1 | - | 21 d | 235/80 | 2 µM |
| O=c1oc2ccc(F)cc2c(=S)n1-c1ccc(Br)cc1 | - | 14 d | 6509/96 | 1 µM |
| N/C(=N\N=C\c1ccccc1)SCc1ccc(C(F)(F)F)cc1 | broth dilution | 14 d | ATCC 12478 | 62.5 µM |
| Cc1ccc2oc(=O)n(-c3ccc(F)cc3)c(=S)c2c1 | - | 14 d | My 235/80 | 8 µM |
| O=C(Nc1ccc(Cl)cc1)c1cc(Cl)ccc1OS(=O)(=O)c1ccccc1 | - | 21 d | 6509/96 | 8 µM |

An empty or dashed field is not shown.